Experimental data as given in patent publication US6160004A, “C-10 carbon-substituted artemisinin-like trioxane compounds having antimalarial, antiproliferative and antitumor activities” (priority 1998, dated 2000).
“Also recorded” adds a separate entry of the source.

Experiment: Exposure to iron (II), mechanism of action
Settings: exposed to iron (II); listed as methylfuran 5b

Question: For `Cc1ccc([C@@H]2O[C@@H]3O[C@@]4(C)CC[C@H]5[C@H](C)CC[C@@H]([C@H]2C)[C@@]35OO4)o1` [Monomer 17b], which “evidence for reaction intermediates with iron (II)” value is on record?
Answer: a C4 -hydroxylated product was isolated; also recorded: rearrangement of hexamethyl Dewar benzene into hexamethylbenzene was observed
